Laboratory results as given in patent publication US10195189B2, “2-phenethenyltetrahydro isoquinolines useful as anti-HIV compounds” (priority 2014, dated 2019).

Test system: HIV-1 NL4-3 viral clone expressing Renilla luciferase
Type: cell-based
Details: ratio of CC50 over EC50
Procedure, shortened: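 MT-2 cells (2×10^4/well) were infected at MOI 0.027 with Renilla-luciferase HIV-1 NL4-3 alongside 3-fold compound dilutions for 96 h. Spread was read by EnduRen luminescence and supernatant infectivity on TZM-bl (48 h, MUG fluorescence). Mock-infected cytotoxicity used AlamarBlue. % inhibition versus solvent was fitted by 4-parameter logistic (0–100% constrained) for EC50/CC50.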

Structure (SMILES) | SI
COc1cc2c(cc1OCc1ccccc1)CCNC2/C=C/c1ccc(OC)c2ccoc12 (stereo not drawn) [Example AO, 6-Benzyloxy-7-methoxy-1-[(E)-2-(4-methoxybenzofuran-7-yl)vinyl]-1,2,3,4-tetrahydroisoquinoline] | 8.8
COc1cc2c(cc1OCc1ccccc1)CCNC2/C=C/c1ccc2cccnc2c1 (stereo not drawn) [DL, (E)-7-(2-(6-(benzyloxy)-7-methoxy-1,2,3,4-tetrahydroisoquinolin-1-yl)vinyl)quinoline] | 72
COc1cc(C)c(/C=C/C2c3cc(OC)c(OCc4ccccc4)cc3CCN2C(=O)c2cccnc2N)cc1OCc1ccccc1 (stereo not drawn) [Example K, (2-Amino-3-pyridyl)-[6-benzyloxy-1-[(E)-2-(5-benzyloxy-4-methoxy-2-methyl-phenyl)vinyl]-7-methoxy-3,4-dihydro-1H-isoquinoline-2-yl]methanone] | 34.72
COc1cc2c(cc1OCc1ccccc1)CCNC2/C=C/c1scnc1C (stereo not drawn) [DY, 5-[(E)-2-(6-Benzyloxy-7-methoxy-1,2,3,4-tetrahydroisoquinolin-1-yl)vinyl]-4-methyl-thiazole] | 3.9
COc1cc2c(cc1OCc1ccccc1)CCNC2/C=C/c1ccccc1C (stereo not drawn) [Example W, 6-benzyloxy-7-methoxy-1-[(E)-2-(o-tolyl)vinyl]-1,2,3,4-tetrahydroisoquinoline] | 5.8
COc1cc2c(cc1OCc1ccccc1)CCNC2/C=C/c1cc2ccccc2n1C(=O)OC(C)(C)C (stereo not drawn) [CH, tert-Butyl 2-[(E)-2-(6-benzyloxy-7-methoxy-1,2,3,4-tetrahydroisoquinolin-1-yl)vinyl]indole-1-carboxylate] | 6
COc1cc(C)c(/C=C/C2NCCc3cc(OCc4ccccc4)c(OC)cc32)cc1OC (stereo not drawn) [Example AH, 6-benzyloxy-1-[(E)-2-(4,5-dimethoxy-2-methyl-phenyl)vinyl]-7-methoxy-1,2,3,4-tetrahydroisoquinoline] | 180.8
COc1cc(/C=C/C2NCCc3cc(OCc4ccccc4)c(OC)cc32)cc(OC)c1 (stereo not drawn) [AT, 6-Benzyloxy-1-[(E)-2-(3,5-dimethoxyphenyl)vinyl]-7-methoxy-1,2,3,4-tetrahydroisoquinoline] | 6.3
COc1cc(C(C)(C)C)c(/C=C/C2NCCc3cc(OCc4ccccc4)c(OC)cc32)cc1OCc1ccccc1 (stereo not drawn) [Example J, 6-Benzyloxy-1-[(E)-2-(5-benzyloxy-2-tert-butyl-4-methoxy-phenyl)vinyl]-7-methoxy-1,2,3,4-tetrahydroisoquinoline] | 1.27
COc1cc2c(cc1OCc1ccccc1)CCNC2/C=C/c1ccc(-n2cncn2)cc1 (stereo not drawn) [DT, 6-(Benzyloxy)-7-methoxy-1-[(E)-2-[4-(1H-1,2,4-triazol-1-yl)phenyl]ethenyl]-1,2,3,4-tetrahydroisoquinoline] | 47
COc1cc2c(cc1OCc1ccccc1)CCNC2/C=C/c1ccccc1C(=O)O (stereo not drawn) [ES, 2-[(E)-2-(6-benzyloxy-7-methoxy-1,2,3,4-tetrahydroisoquinolin-1-yl)vinyl]benzoic acid] | 1.2
COc1cc2c(cc1OCc1ccccc1)CCNC2/C=C/c1cc(OCC2CCNCC2)c(OC)cc1C (stereo not drawn) [BY, 6-Benzyloxy-7-methoxy-1-[(E)-2-[4-methoxy-2-methyl-5-(4-piperidylmethoxy)phenyl]vinyl]-1,2,3,4-tetrahydroisoquinoline] | 5
COc1cc(C)c(/C=C/C2c3cc(OC)c(OCc4ccccc4)cc3CCN2C(=O)NC(C)(C)C)cc1OCc1ccccc1 (stereo not drawn) [Example O, 6-benzyloxy-1-[(E)-2-(5-benzyloxy-4-methoxy-2-methyl-phenyl)vinyl]-N-tert-butyl-7-methoxy-3,4-dihydro-1H-isoquinoline-2-carboxamide] | >5
COc1cc2c(cc1OCc1ccccc1)CCNC2/C=C/c1cc(OCc2ccccc2)ccc1C (stereo not drawn) [Example AD, 6-benzyloxy-1-[(E)-2-(5-benzyloxy-2-methyl-phenyl)vinyl]-7-methoxy-1,2,3,4-tetrahydroisoquinoline] | 38.1
COc1cc2c(cc1OCc1ccccc1)CCNC2/C=C/c1ccc(-n2ccnc2)cc1 (stereo not drawn) [DK, (E)-1-(4-(1H-imidazol-1-yl)styryl)-6-(benzyloxy)-7-methoxy-1,2,3,4-tetrahydroisoquinoline] | 85
COc1cc2c(cc1OCc1ccccc1)CCNC2/C=C/c1ccc(OC)c(C)c1C (stereo not drawn) [EL, 6-Benzyloxy-7-methoxy-1-[(E)-2-(4-methoxy-2,3-dimethyl-phenyl)vinyl]-1,2,3,4-tetrahydroisoquinoline] | 21.7
COc1cc2c(cc1OCc1ccccc1)CCNC2/C=C/c1ccc2cn[nH]c2c1 (stereo not drawn) [BT, 6-Benzyloxy-1-[(E)-2-(1H-indazol-6-yl)vinyl]-7-methoxy-1,2,3,4-tetrahydroisoquinoline] | 13.02
COc1cc(C)c(/C=C/C2c3cc(OC)c(OCc4ccccc4)cc3CCN2C(=O)c2ccnc(N)c2)cc1OCc1ccccc1 (stereo not drawn) [Example N, (2-amino-4-pyridyl)-[6-benzyloxy-1-[(E)-2-(5-benzyloxy-4-methoxy-2-methyl-phenyl)vinyl]-7-methoxy-3,4-dihydro-1H-isoquinolin-2-yl]methanone] | 49.3
COc1cc2c(cc1OCc1ccccc1)CCNC2/C=C/c1sccc1C (stereo not drawn) [BS, 6-Benzyloxy-7-methoxy-1-[(E)-2-(3-methyl-2-thienyl)vinyl]-1,2,3,4-tetrahydroisoquinoline] | 3.94
COc1cc2c(cc1OCc1ccccc1)CCNC2/C=C/c1ccc(N(C)C)cc1C (stereo not drawn) [BG, 4-[(E)-2-(6-benzyloxy-7-methoxy-1,2,3,4-tetrahydroisoquinolin-1-yl)vinyl]-N,N,3-trimethyl-aniline] | 2.69
COc1cc(C)c(/C=C/C2c3cc(OC)c(OCc4ccccc4)cc3CCN2C(=O)c2cccc(N)n2)cc1OCc1ccccc1 (stereo not drawn) [Example F, (6-Amino-2-pyridyl)-[6-benzyloxy-1-[(E)-2-(5-benzyloxy-4-methoxy-2-methyl-phenyl)vinyl]-7-methoxy-3,4-dihydro-1H-isoquinolin-2-yl]methanone] | 19.8
COc1cc(C)c(/C=C/C2c3cc(OC)c(OCc4ccccc4)cc3CCN2C(N)=O)cc1OCc1ccccc1 (stereo not drawn) [Example R, 6-benzyloxy-1-[(E)-2-(5-benzyloxy-4-methoxy-2-methyl-phenyl)vinyl]-7-methoxy-3,4-dihydro-1H-isoquinoline-2-carboxamide] | 33.1
COc1ccc(/C=C/C2NCCc3cc(OCc4ccccc4)c(OC)cc32)cc1C (stereo not drawn) [EI, 6-Benzyloxy-7-methoxy-1-[(E)-2-(4-methoxy-3-methyl-phenyl)vinyl]-1,2,3,4-tetrahydroisoquinoline] | 35.3
COc1cc2c(cc1OCc1ccccc1)CCNC2/C=C/c1ccccc1N1CCOCC1 (stereo not drawn) [DH, (E)-4-(2-(2-(6-(benzyloxy)-7-methoxy-1,2,3,4-tetrahydroisoquinolin-1-yl)vinyl)phenyl)morpholine] | 3.4
